Results of unrelated studies side by side (data: NIAID ChemDB).

Common to all: tests in culture

A number after MIC or MFC names an inhibition level or a share of isolates. ECn is the concentration giving n% inhibition of infection, replication or growth. An empty or dashed field is not shown. Percent inhibition refers to the dose given; in toxicity tests it is the harm to the cells. Neighbouring rows are from separate reports.

compound | read-out | method | agent | strain | cell line | dose | value
CC(=O)N[C@H]1[C@H]([C@H](O)[C@H](O)CO)OC(C(=O)O)=C[C@@H]1N=C(N)N | EC50 | visual reading | Influenza A virus | H1N1 A/NWS/33 | MDCK | - | 60 µM
CCOC(=O)c1ccc(OCCC2CCN(c3ccc(C)nn3)CC2)cc1 | EC50 | neutral red | Rhinovirus | 33342 (ICAM-1 receptor group 17) | KB | - | 0.027 µM
C=CCc1ccc(O)c(OC)c1 | MIC90 | turbidity | Candida albicans | 3070 | - | - | 495 µg/mL
C=Cc1cn([C@@H]2O[C@H](CO)[C@@H](O)[C@@H]2O)c(=O)[nH]c1=O | inhibition | plaque count | Varicella zoster virus | KANNO | HELF | 0.1 µg/mL | 92%
O=S(=O)([O-])c1cc(NS(=O)(=O)c2ccccc2)c2c(S(=O)(=O)[O-])cc(S(=O)(=O)[O-])cc2c1 | inhibition | cytopathic effect | Herpes simplex virus | - | Human amnion AV3 cells | 5 µg/mL | 25%
Oc1ccccc1C=Nc1ccccc1O | MIC99 | - | Cryptococcus neoformans | ATCC 62066 | - | - | 2 µg/mL
Nc1nc(=O)n([C@@H]2O[C@H](CO)[C@@H](O)[C@@H]2F)cc1I | inhibition | plaque count | Varicella zoster virus | Kawaguchi | HELF | 0.1 µg/mL | 98%
Oc1ccccc1N=Cc1ccc(F)cc1 | MIC99 | - | Cryptococcus neoformans | LMM 820 | - | - | 4 µg/mL
O=S(=O)([O-])c1ccc2c(NS(=O)(=O)c3ccccc3)cc(S(=O)(=O)[O-])cc2c1 | inhibition | cytopathic effect | Adenovirus | TYPE 3 | Human embryonic lung cells | 10 µg/mL | 10%
Nc1nc2c(ncn2COCCO)c(=O)[nH]1 | inhibition | plaque count | Varicella zoster virus | Asahikawa | HELF | 1 µg/mL | 28%
O=S(=O)(O)c1cc(O)c2c(O)c(N=Nc3ccccc3)c(S(=O)(=O)O)cc2c1 | inhibition | cytopathic effect | Adenovirus | TYPE 3 | Human embryonic lung cells | 10 µg/mL | 20%
Oc1ccc(O)c(C=Nc2ccccc2O)c1 | MIC99 | - | Cryptococcus neoformans | LMM 820 | - | - | 5.7 µg/mL
O=C(Nc1ccc(S(=O)(=O)[O-])c2cccc(S(=O)(=O)[O-])c12)c1ccccc1 | inhibition | cytopathic effect | Rhinovirus | - | Human embryonic lung cells | 50 µg/mL | 20%
Oc1ccccc1N=Cc1cccc(O)c1O | MIC99 | - | Cryptococcus neoformans | LMM 820 | - | - | 4 µg/mL
O=S(=O)([O-])c1ccc2c(O)cc(S(=O)(=O)[O-])cc2c1 | inhibition | cytopathic effect | Herpes simplex virus | - | Human amnion AV3 cells | 5 µg/mL | 5%
O=c1[nH]c(=O)n([C@@H]2O[C@H](CO)[C@@H](O)[C@@H]2O)cc1/C=C/Br | inhibition | plaque count | Varicella zoster virus | Asahikawa | HELF | 0.001 µg/mL | 96%
Nc1ccc(S(=O)(=O)[O-])c2c(S(=O)(=O)[O-])ccc(O)c12 | inhibition | cytopathic effect | Herpes simplex virus | - | Human conjunctiva cells | 10 µg/mL | 0%
CCOC(=O)/C=C/[C@H](C[C@@H]1CCNC1=O)NC(=O)[C@@H](CC(=O)[C@@H](NC(=O)c1cc(C)on1)C(C)C)Cc1ccc(F)cc1 | EC50 | cytopathic effect / visual reading | Rhinovirus | Isolate 2 | OHIO HELA-I | - | 0.01 µg/mL
O=c1[nH]c(=O)n([C@@H]2O[C@H](CO)[C@@H](O)[C@@H]2O)cc1/C=C/Cl | inhibition | plaque count | Varicella zoster virus | YS | HELF | 0.01 µg/mL | 100%